Tested on: C. albicans (MYA-2876)
Type: cell-based, Candida albicans

Question: For Nc1nc(=O)[nH]cc1F [5-fluorocytosine, reference compound], which “increase of MIC and MFC values after serial passaging” value (C. albicans, daily exposure to 1/10th of MIC, by passage 21) is on record?
Answer: The value was 32 fold.

Question: For NCCN(CCN)/[N+]([O-])=N/O [DETA/NO, diethylenetriamine/NO], which “change in MIC or MFCs after serial passaging” value (from here on “change in MIC or MFCs”) is on record?
Answer: The value was “no change”.

Question: Which “change in MIC or MFCs” value does the source give for NCCCN(CCCN)/[N+]([O-])=N/O [DPTA/NO, bis(3-aminopropyl) amine/NO] here?
Answer: The value was “no changes”.

Question: NCCCNCCCCN(CCCN)/[N+]([O-])=N/O [SPER/NO, spermine/NO] was tested. Which “change in MIC or MFCs” value did it give?
Answer: Its value is “no changes”.

Question: Clc1ccc(COC(Cn2ccnc2)c2ccc(Cl)cc2Cl)c(Cl)c1 (centres unmarked) [miconazole, reference compound] was tested. Which “outcome of passaging at sub-MIC dose” value did it give?
Answer: Its value is “death of C. albicans after the second passage”.

Source: publication PMC11121837, “Impact of Nitric Oxide-Release Kinetics on Antifungal Activity” (Journal of Fungi, 2024)
